Results on 1 molecule are retold here after patent publication US6461863 (UNIVERSITY OF WYOMING, dated 2002).

The target of this experiment is Ricinus communis agglutinin (RCA), digoxigenylated lectin (Ricinus communis, UniProt P06750 25-290; P06750 303-564). The experiment in a line: lectin blot of immunoprecipitated t-PA.

B1: human tissue plasminogen activator produced in Sf9 cells infected with Ac941t-PA (enzyme)
chain: not shown
B1: the binding result is “no binding”.
